Tests used:
human Kv1.1 (human) = human Kv1.1 (human) (UniProt Q09470); experiment: cell-based or functional assay
human Kv1.3 (human) = human Kv1.3 (human) (UniProt P22001); experiment: cell-based or functional assay

Row | Substance | hKv1.1: IC50 [pM], whole cell patch clamp (human Kv1.1 (human)) [pM] | hKv1.1/hKv1.3 (ratio of IC50s, reference hKv1.3) (human Kv1.1 (human)) | fold change in selectivity (Kv1.1/Kv1.3) against Fc-L10-OSK1 (human Kv1.3 (human)) [fold] | fold less potent than the synthetic OSK1 toxin peptide (human Kv1.3 (human)) [fold]
1 | Fc-L10-OSK1[K7S, E16K, K20D] (Fc fusion) | 10000 |  |  | 
2 | Fc-L10-OSK1[K7S] (Fc fusion) | 100000 | 269 | 1.3 | 10

From patent US20090297520A1
